Values from PubChem BioAssay AID1259414 (Drosophila RNAi Screening Center, 2018).

Aim: 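Fly genes that alter Wolbachia amount inside host cells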 (primary screen)
Cells: Drosophila JW18 cells infected with Wolbachia
Reagents: long dsRNA against Drosophila genes, 0.25 µg dsRNA per well of a 384-well plate
Time to read-out: 5 days
Challenge: cells persistently infected with Wolbachia before knock-down; no added drug
Measurement: 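Imaged fluorescence in situ signal for Wolbachia 23S rRNA per DAPI-counted host cell, given as a robust z-score within each plate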
Direction: Wolbachia per cell robust z: higher = more Wolbachia per host cell than the plate typical
Call rule: 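Active if absolute robust z reaches 1.5 in two or more of three replicates, leaving out multi- or no-target dsRNAs, genes unexpressed in JW18 and A1 wells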
The deposit covers about 24,000 reagents; below is a random part of those that have a named target and a result. In the full data, about 1,210 (5%) are marked active. 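Inactive calls also include excluded dsRNAs with several or no targets, genes unexpressed in JW18, and well A1, regardless of score.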 The numbers tell different reagents against one gene apart. A plus sign joins genes that one reagent is predicted to hit.

no.	target	reagent no.	Wolbachia per cell robust z, rep 1	Wolbachia per cell robust z, rep 2	Wolbachia per cell robust z, rep 3	call
1	Or82a (Odorant receptor 82a)	1	-1.09	-0.193	0.0343	inactive
2	CG14683	1	-9.61	-4.85	0.0459	active
3	Ugt36E1 (UDP-glycosyltransferase family 36 member E1)	1	-0.29	0.291	0.299	inactive
4	Atg101 (Autophagy-related 101)	1	0.33	-0.0752	0.417	inactive
5	Kap-alpha3 (karyopherin alpha3)	1	-0.94	-1.51	-1.01	inactive
6	Kap-alpha3 (karyopherin alpha3)	2	-0.0467	0.619	0.951	inactive
7	fs(1)N (female sterile (1) Nasrat)	1	1.21	-2.78	0.0178	inactive
8	CG43386	1	-0.788	-1.57	0.525	inactive
9	Hyccin	1	-0.117	-0.98	-0.91	inactive
10	tex	1	0.419	-0.0424	0.433	inactive
11	snRNA:U3 (retired record)	1	0.799	1.3	0.169	inactive
12	mew (multiple edematous wings)	1	-0.813	-0.127	-1.97	inactive
13	mew (multiple edematous wings)	2	-1	1.22	0.299	inactive
14	CG43318	1	-0.92	0.816	-0.124	inactive
15	Rbp + h-cup	1	0.698	1.5	-2.15	inactive
16	CG34124	1	-2.2	-1.43	-1.08	inactive
17	CG12934	1	-0.864	0.0233	-1.67	inactive
18	CG12934	2	-0.168	0.462	1.91	inactive
19	mRpL55 (mitochondrial ribosomal protein L55)	1	1.36	0.697	1.13	inactive
20	CG31358 + CG42504 + CG42505	1	-2.11	-0.755	-2.07	inactive
21	CG7988	1	-3.93	0.25	0.409	inactive
22	CG13385	1	0.115	-2.29	-3.67	inactive
23	CG2871	1	-0.456	0.587	1.04	inactive
24	CG2871	2	-0.394	-1.26	-1.14	inactive
25	Pngl (PNGase-like)	1	0.912	0.939	0.00326	inactive
26	Zir (Zizimin-related)	1	-3.56	-6.95	1.46	active
27	CG14244	1	-4.62	1.06	0.949	inactive
28	CG13526	1	-0.465	-0.0682	0.587	inactive
29	S1P (Site-1 protease)	1	-1.24	-0.0952	-0.677	inactive
30	CG12948	1	-1.8	-0.0401	-0.229	inactive
31	CG12948	2	-0.717	1.61	0.42	inactive

The list goes on (4 carried over from the part before).
no.	target	reagent no.	Wolbachia per cell robust z, rep 1	Wolbachia per cell robust z, rep 2	Wolbachia per cell robust z, rep 3	call
28	CG13526	1	-0.465	-0.0682	0.587	inactive
29	S1P (Site-1 protease)	1	-1.24	-0.0952	-0.677	inactive
30	CG12948	1	-1.8	-0.0401	-0.229	inactive
31	CG12948	2	-0.717	1.61	0.42	inactive
32	Bx42	1	4.15	5.09	10.1	active
33	Bx42	2	0.761	-0.978	1.32	inactive
34	dati (datilografo)	1	-0.0387	1.68	-1.54	inactive
35	dati (datilografo)	2	0.422	0.853	0.537	inactive
36	dati (datilografo)	3	0.87	-4.74	0.0914	inactive
37	dati (datilografo)	4	0.131	-1.44	-0.619	inactive
38	CG30412	1	0.391	-0.361	-0.164	inactive
39	CG30412	2	0.203	0.53	-0.258	inactive
40	CG34007	1	0.0084	-0.842	-0.324	inactive
41	CG7330	1	0.33	1.11	-4.47	inactive
42	CG7330	2	-0.175	0.739	-0.747	inactive
43	CG16898	1	-0.207	-0.352	0.127	inactive
44	CG16898	2	-8.61	-0.642	-2.79	inactive
45	CG16898	3	0.635	0.352	1.37	inactive
46	Cadps (Calcium-dependent secretion activator)	1	0.44	-1.2	-0.164	inactive
47	Cadps (Calcium-dependent secretion activator)	2	0.00915	-0.737	0.00257	inactive
48	fz2 (frizzled 2)	1	0.727	1.53	-1.08	inactive
49	fz2 (frizzled 2)	2	-0.00364	0.198	0.0894	inactive
50	CG17440	1	-0.238	-1.15	0.163	inactive
51	CG17440	2	0.123	-0.673	-0.85	inactive
52	Nuak (Nuak family kinase)	1	-0.294	-7.51	-4.08	active
53	Nuak (Nuak family kinase)	2	1.13	0.76	0.485	inactive
54	Nuak (Nuak family kinase)	3	-4.83	-0.398	-6.73	active
55	CG13331	1	-2.11	-0.605	0.194	inactive
56	CG34148 + P5CDh2	1	0.426	1.34	0.0278	inactive
57	CG7333	1	-1.26	-1.82	0.804	inactive
58	CG14022	1	0.373	0.477	0.0824	inactive
59	CG14022	2	0.576	1.36	0.357	inactive
60	CG14022	3	-2.11	-0.432	0.212	inactive
61	CG12035	1	0.124	1.01	0.108	inactive
62	Erasp (Endoplasmic reticulum stress-associated serine protease)	1	-0.787	0.436	0.9	inactive
63	Oatp58Dc (Organic anion transporting polypeptide 58Dc)	1	-0.219	0.415	0.274	inactive
64	Oatp58Dc (Organic anion transporting polypeptide 58Dc)	2	-2.47	0.0683	0.549	inactive
65	Oatp58Dc (Organic anion transporting polypeptide 58Dc)	3	-0.425	0.115	0.637	inactive
66	Spf30 (Splicing factor 30)	1	0.621	-0.709	-2.29	inactive
67	mag (magro)	1	0.598	0.574	0.827	inactive
68	mag (magro)	2	0.756	0.0892	0.0911	inactive
